Results: publication PMC10508830 (Antiviral research, 2023)

Assays:
[1] = biological target: NA of clade 2.3.4.4b A(H5N1) viruses lacking the flagged NA substitutions (n = 15) (Influenza A virus, UniProt Q9Q0U7); test: fluorescence-based NI assay, baseline; format: biochemical
[2] = biological target: NA of A/black vulture/Maryland/22-012407-001/2022 (Influenza A virus (H5N1), UniProt Q9Q0U7); test: fluorescence-based NI assay; format: biochemical; conditions: vulture/MD/22
[3] = biological target: NA of A/Canada goose/Wyoming/22-011671-001/2022 (Influenza A virus, UniProt Q9Q0U7); test: fluorescence-based NI assay; format: biochemical, influenza A(H5N1) virus; conditions: goose/WY/22
[4] = biological target: NA of A/Cooper's hawk/Minnesota/22-012931-001/2022 (Influenza A virus, UniProt Q9Q0U7); test: fluorescence-based NI assay; format: biochemical, influenza A(H5N1) virus; conditions: hawk/MN-1/22
[5] = biological target: NA of A/fox/Michigan/22-014536-004/2022 (del50-70) (Influenza A virus, UniProt Q9Q0U7); test: fluorescence-based NI assay; format: biochemical, influenza A(H5N1) virus; conditions: fox/MI/22, NA del50-70
[6] = biological target: NA of A/Alabama/03/2020 A(H1N1)pdm09 (H275Y) (Influenza A virus, UniProt A0A0X9QTS2, H275Y); test: fluorescence-based NI assay, reference virus; format: biochemical
[7] = biological target: NA of A/bald eagle/Florida/22-006544-004/2022 (Influenza A virus, UniProt Q9Q0U7); conditions: eagle/FL/22
[8] = biological target: NA of A/turkey/Iowa/22-012098-001/2022 (Influenza A virus, UniProt Q9Q0U7); conditions: turkey/IA/22
[9] = biological target: NA of A/red-shouldered hawk/Minnesota/22-012000-004/2022 (Influenza A virus, UniProt Q9Q0U7); conditions: hawk/MN-4/22
[10] = biological target: NA of A/fox/Wisconsin/22-013774-002/2022 (Influenza A virus, UniProt Q9Q0U7); conditions: fox/WI-2/22
[11] = biological target: NA of A/chicken/Pennsylvania/22-012092-006/2022 (G105S) (Influenza A virus (H5N1), UniProt Q9Q0U7, G105S)
[12] = biological target: NA of A/chicken/Pennsylvania/22-012092-010/2022 (G105S) (Influenza A virus (H5N1), UniProt Q9Q0U7, G105S)
[13] = biological target: NA of A/bald eagle/Wyoming/22-013015-001/2022 (S82L, V114A) (Influenza A virus, UniProt Q9Q0U7, S82L/V114A)
[14] = biological target: NA of A/chicken/Idaho/22-011347-004/2022 (I117T) (Influenza A virus (H5N1), UniProt Q9Q0U7, I117T)
[15] = biological target: NA of A/skunk/Washington/22-019274-001/2022 (I117T) (Influenza A virus, UniProt Q9Q0U7, I117T)
[16] = biological target: NA of A/fox/Wisconsin/22-014746-030/2022 (V149I, N355S) (Influenza A virus, UniProt Q9Q0U7, N355S/V149I)
[17] = biological target: NA of A/Virginia opossum/Iowa/22-016780-001/2022 (I188T) (Influenza A virus, UniProt Q9Q0U7)
[18] = biological target: NA of A/dolphin/Florida/22-025319-002/2022 (S247N) (Influenza A virus (H5N1), UniProt Q9Q0U7, S247N)
[19] = biological target: NA of A/black vulture/Florida/22-010358-001/2022 (N295D) (Influenza A virus, UniProt Q9Q0U7, N295D)
[20] = biological target: NA of A/black vulture/Florida/22-012331-001/2022 (N295S, T438N) (Influenza A virus, UniProt Q9Q0U7, N295S/T438N)
[21] = biological target: NA of A/black vulture/Florida/22-012333-001/2022 (N/S295, T/N438, mixed population) (Influenza A virus (H5N1), UniProt Q9Q0U7)
[22] = biological target: NA of A/black vulture/Florida/22-012333-001/2022 clone1 (N295S) (Influenza A virus (H5N1), UniProt Q9Q0U7, N295S)
[23] = biological target: NA of A/black vulture/Florida/22-012333-001/2022 clone2 (T438N) (Influenza A virus (H5N1), UniProt Q9Q0U7, T438N)
[24] = biological target: NA of A/black vulture/Florida/22-012333-001/2022 clone3 (N295S, T438N) (Influenza A virus (H5N1), UniProt Q9Q0U7, N295S/T438N)
[25] = biological target: NA of A/harbor seal/Maine/22-020983-002/2022 (T362I) (Influenza A virus, UniProt Q9Q0U7, T362I)
[26] = biological target: NA of A/chicken/Michigan/22-013961-001/2022 (I443T) (Influenza A virus (H5N1), UniProt Q9Q0U7, I443T)
[27] = biological target: NA of A/Illinois/45/2019 A(H1N1)pdm09 (Influenza A virus, UniProt A0A0X9QTS2); conditions: read-out: Mean IC50 ± SD; reference IL/45/19 A(H1N1)pdm09; wildtype NA
[28] = read-out: Mean IC50 ± SD, no NA change
[29] = relative to median IC50 A(H5N1)

For `CCC(CC)O[C@@H]1C=C(C(=O)O)C[C@H](N=C(N)N)[C@H]1NC(=O)CF`, the “relative potency at inhibiting NA activity” value ([1]; among the five NA inhibitors tested) was “most potent”, the “potency at inhibiting NA activity compared to oseltamivir (median IC50)” value ([1]; baseline clade 2.3.4.4b viruses) was 67 fold and the IC50 ([1]; read-out: Median IC50 A(H5N1), baseline susceptibility, viruses lacking flagged NA substitutions (n = 15)) was 0.04 nM. The IC50 [2, 28] was 0.05 nM, the IC50 fold-change [2, 29] was 1 fold and the IC50 fold-change [3, 29] was 1 fold. It also gave an IC50 [3, 28] of 0.03 nM, an IC50 fold-change [4, 29] of 1 fold and an IC50 [4, 28] of 0.04 nM. It also gave an IC50 fold-change [5, 29] of 1 fold, an IC50 ([5]; read-out: Mean IC50 ± SD) of 0.04 nM and an IC50 fold-change ([6]; AL/03/20 A(H1N1)pdm09, relative to NA sequence-matched wildtype reference virus IC50) of 8 fold. For the same molecule, the IC50 ([6]; read-out: Mean IC50 ± SD, reference AL/03/20 A(H1N1)pdm09) was 0.76 nM, the IC50 fold-change [7, 29] was 1 fold and the IC50 [7, 28] was 0.04 nM. The IC50 [8, 28] was 0.04 nM, the IC50 fold-change [8, 29] was 1 fold and the IC50 fold-change [9, 29] was 1 fold. For the same molecule, the IC50 [9, 28] was 0.03 nM, the IC50 fold-change [10, 29] was 1 fold and the IC50 [10, 28] was 0.04 nM. The IC50 fold-change ([11]; chicken/PA-6/22, relative to median IC50 A(H5N1)) was 2 fold, the IC50 ([11]; read-out: Mean IC50 ± SD, chicken/PA-6/22) was 0.06 nM and the IC50 fold-change ([12]; chicken/PA-10/22, relative to median IC50 A(H5N1)) was 2 fold. It also gave an IC50 ([12]; read-out: Mean IC50 ± SD, chicken/PA-10/22) of 0.08 nM, an IC50 fold-change ([13]; eagle/WY/22, relative to median IC50 A(H5N1)) of 2 fold and an IC50 ([13]; read-out: Mean IC50 ± SD, eagle/WY/22) of 0.06 nM. The IC50 fold-change ([14]; chicken/ID/22, relative to median IC50 A(H5N1)) was 1 fold, the IC50 ([14]; read-out: Mean IC50 ± SD, chicken/ID/22) was 0.05 nM and the IC50 ([15]; read-out: Mean IC50 ± SD, skunk/WA/22) was 0.04 nM. For the same molecule, the IC50 fold-change ([15]; skunk/WA/22, relative to median IC50 A(H5N1)) was 1 fold, the IC50 fold-change ([16]; fox/WI-30/22, relative to median IC50 A(H5N1)) was 1 fold and the IC50 ([16]; read-out: Mean IC50 ± SD, fox/WI-30/22) was 0.05 nM. The IC50 fold-change ([17]; opossum/IA/22, relative to median IC50 A(H5N1)) was 1 fold, the IC50 ([17]; read-out: Mean IC50 ± SD, opossum/IA/22) was 0.05 nM and the IC50 fold-change ([18]; dolphin/FL-2/22 (dolphin/FL/22), relative to median IC50 A(H5N1)) was 2 fold. It also gave an IC50 ([18]; read-out: Mean IC50 ± SD, dolphin/FL-2/22 (dolphin/FL/22)) of 0.09 nM, an IC50 ([19]; read-out: Mean IC50 ± SD, vulture/FL-58/22) of 0.15 nM and an IC50 fold-change ([19]; vulture/FL-58/22, relative to median IC50 A(H5N1)) of 4 fold. For the same molecule, the IC50 ([20]; read-out: Mean IC50 ± SD, vulture/FL-31/22) was 2.19 nM, the IC50 fold-change ([20]; vulture/FL-31/22, relative to median IC50 A(H5N1)) was 55 fold and the IC50 [21] was 0.14 nM. For the same molecule, the IC50 [22] was 0.28 nM, the IC50 fold-change ([22]; clone 1, NA N295S, relative to median IC50 A(H5N1)) was 7 fold and the IC50 [23] was 0.06 nM. For the same molecule, the IC50 fold-change ([23]; clone 2, NA T438N, relative to median IC50 A(H5N1)) was 2 fold, the IC50 [24] was 2.03 nM and the IC50 fold-change ([24]; clone 3, NA N295S, T438N, relative to median IC50 A(H5N1)) was 51 fold. For the same molecule, the IC50 ([25]; read-out: Mean IC50 ± SD, seal/ME-2/22) was 0.04 nM, the IC50 fold-change ([25]; seal/ME-2/22, relative to median IC50 A(H5N1)) was 1 fold and the IC50 fold-change ([26]; chicken/MI/22, relative to median IC50 A(H5N1)) was 1 fold. The IC50 ([26]; read-out: Mean IC50 ± SD, chicken/MI/22) was 0.04 nM and the IC50 [27] was 0.09 nM.
